A mixed list of measured activities; the numbers were collected in NIAID ChemDB.

Common to all: growth or infection tests; agent: HIV-2; endpoint: EC50

An empty or dashed field is not shown. Conditions beyond the fields shown may differ between rows. ECn: concentration that inhibits the pathogen or its effect by n%.

structure	cell line	method	mutations	strain	value
O=C1N(Cc2ccc(CO)cc2)[C@H](Cc2ccccc2)[C@H](O)[C@@H](O)[C@@H](Cc2ccccc2)N1Cc1ccc(CO)cc1	MT-2	-	-	ROD	<0.05 µM
CCN(C)C(=O)c1cnnn1C1OC(CO[Si](C)(C)C(C)(C)C)C2(OS(=O)(=O)C=C2N)C1O[Si](C)(C)C(C)(C)C	MT-4	cytopathic effect	-	ROD	>250 µM
CCN[C@H]1CO[C@@H]2OC[C@H](OC(=O)N[C@@H](Cc3ccccc3)[C@H](O)CN(CC(C)C)S(=O)(=O)c3ccc4nc(NC5CC5)sc4c3)[C@@H]21	MT-4	MTT / p24	-	EHO	0.0219 µM
CC1=C[C@H]2[C@@]3(O)[C@H](C)[C@@H](O)[C@]4(O)[C@H]([C@@H]3C=C(O)C[C@]2(O)C1=O)C4(C)C	MT-4	MTT	-	ROD	>343 µM
Nc1nc(NC2CC2)c2ncn([C@H]3C=C[C@@H](CO)C3)c2n1	CEM	syncytia	-	ROD	6 µM
CCC[C@]1(CCc2ccccc2)CC(O)=C([C@@H](CC)c2cccc(NS(=O)(=O)c3ccc(C(F)(F)F)cn3)c2)C(=O)O1	MT-4	MTT / p24	-	EHO	0.2858 µM
CCCCCCCCCCCCCCCCOP(=O)(O)OC[C@H]1O[C@@H](n2cc(C)c(=O)[nH]c2=O)C[C@@H]1N=[N+]=[N-]	CEM + CEM TK-	syncytia	-	ROD	>40 µM
Cc1nc(N2C(=O)CSC2c2c(Cl)cccc2Cl)ccc1Br	MT-4	cytopathic effect	-	ROD	9.74 µM
Cc1cn([C@H]2C[C@H](N=[N+]=[N-])[C@@H](CO)O2)c(=O)[nH]c1=O	PBMC	RT activity	-	MS	<2.5 µg/mL
CCCC(=O)O[C@@H]1[C@@H](C)[C@@]2(O)[C@@H](CC(=O)C[C@]3(O)C(=O)C(C)=C[C@@H]23)[C@@H]2C(C)(C)[C@]12OC(=O)CCC	MT-4	MTT	-	ROD	>35 µM
Nc1nc2c(ncn2COCCO)c(=O)[nH]1	CEM	syncytia	-	ROD	>250 µM
Cc1ccc(CN2C(=O)CSC2c2c(F)cccc2F)o1	MT-4	cytopathic effect	-	ROD	35.2 µM
Cc1cn([C@H]2C[C@H](N=[N+]=[N-])[C@@H](CO)O2)c(=O)[nH]c1=O	MT-4	RT activity	-	ROD	0.0018 µg/mL
O=c1[nH]c2c(c(=O)[nH]1)C(c1ccc(I)cc1)c1c([nH]c(=O)[nH]c1=O)O2	MT-4	cytopathic effect	-	EHO	>276 µM
C[C@H](Cn1cnc2c(N)ncnc21)OCP(=O)(O)O	CEM	syncytia	-	ROD	1.4 µg/mL
Cc1cn([C@H]2C=C[C@@H](COP3(=O)OCc4cccc(-c5cccc6c5OC(C)(C)OC6)c4O3)O2)c(=O)[nH]c1=O	CEM	syncytia	-	LAV-2	0.4 µM
Cc1cn([C@@H]2C[C@H](CO)[C@@H](O)C2)c(=O)[nH]c1=O	CEM + CEM/0	-	-	-	0.4 µM
COc1nc(=O)[nH]c2c1C(c1ccc(Br)cc1)c1c(OC)nc(=O)[nH]c1O2	MT-4	cytopathic effect	-	ROD	>309 µM
CC(C)(C)[Si](C)(C)OCC1OC(n2nncc2C(=O)NC2CCC2)C(O[Si](C)(C)C(C)(C)C)C12OS(=O)(=O)C=C2N	CEM	cytopathic effect	-	ROD	>250 µM
O=C1CSC(c2ccnc3ccccc23)N1Cc1ccco1	MT-4	cytopathic effect	-	ROD	21.9 µM
Cc1ccnc2c1NC(=O)c1cccnc1N2C1CC1	MT-4	RT activity	-	ROD	>4 µg/mL
Cc1cccc(N2C(=O)CSC2c2cccnc2)n1	MT-4	cytopathic effect	-	ROD	84 µM
CNc1nc(N)c2ncn([C@H]3C=C[C@@H](OCP(=O)(O)O)O3)c2n1	MT-4	RT activity	-	ROD	>125 µg/mL
COc1ccc(CN[C@@H](C(=O)N[C@H]2c3ccccc3C[C@H]2O)[C@H](O)[C@H](Cc2ccccc2)NC(=O)[C@@H](NC(=O)OCc2ccccc2)C(C)(C)C)cc1	MT-4	p24	-	ROD	0.14 µM
Cc1cccc2c1OP(=O)(OC[C@H]1C[C@@H](n3cc(C)c(=O)[nH]c3=O)C[C@@H]1O)OC2	CEM + CEM/0	-	-	-	0.7 µM
Nc1nc(N)c(C=O)c(OCCOCP(=O)(O)O)n1	CEM	syncytia	-	ROD	0.83 µg/mL
Nc1nc(NC2CC2)c2ncn([C@H]3C=C[C@@H](COP4(=O)OCc5cc(Cl)ccc5O4)C3)c2n1	CEM	syncytia	-	ROD	2.5 µM
Clc1nc(Cl)c2c(n1)Oc1nc(Cl)nc(Cl)c1C2c1ccccc1	MT-4	cytopathic effect	-	ROD	>17.5 µM
N#Cc1ccc(Nc2nccc(C(O)c3cccc4ccccc34)n2)cc1	MT-4	MTT	-	ROD	>6.5 µM
O=C(NCc1ccc(F)cc1)c1nc(N2CCCCS2(=O)=O)c2cccnc2c1O	-	β-galactosidase	-	EHO	0.011 µM
Cc1cn([C@H]2C[C@H](N=[N+]=[N-])[C@@H](CO)O2)c(=O)[nH]c1=O	MT-4	MTT	-	ROD	0.006 µM
Cc1nc(N2C(=O)CSC2c2c(F)cccc2Cl)ccc1Br	MT-4	cytopathic effect	-	ROD	10.7 µM
Nc1ccn([C@H]2CC[C@@H](CO)O2)c(=O)n1	CEM	syncytia	-	ROD	0.013 µM
CCCCCCCCCCCCCCOP(=O)(O)OC[C@H]1O[C@@H](n2cc(C)c(=O)[nH]c2=O)C[C@@H]1N=[N+]=[N-]	CEM + CEM/O	syncytia	-	ROD	0.92 µM
Cc1c(N)nc(N)nc1OCCOCP(=O)(O)O	CEM	syncytia	-	ROD	0.09 µg/mL
C1CNCCNCC(CCOCCOCCC2CNCCNCCCNCCNC2)CNCCNC1	MOLT-4	syncytia	-	GH-1	0.389 µM
Cc1cn([C@@H]2CC[C@H](O)[C@H]2CO)c(=O)[nH]c1=O	CEM + CEM/0	-	-	-	103 µM
C#C[C@]1(CO)O[C@@H](n2cnc3c(N)nc(F)nc32)CC1O	MAGIC-5A	β-galactosidase / absorbance	Q151M	ROD9	0.00038 µM
CN(C)C(=O)c1cnnn1[C@@H]1O[C@H](CO[Si](C)(C)C(C)(C)C)C2(OS(=O)(=O)C=C2N)[C@H]1O[Si](C)(C)C(C)(C)C	MT-4	cytopathic effect	-	ROD	>30 µM
COC(=O)[C@H](C)NP(=O)(OCC1C/C1=C/n1cnc2c(N)ncnc21)Oc1ccccc1	MT-2	p24	-	ROD	0.03 µM
COc1cc(OC)c(C2SCC(=O)N2c2cccc(C)n2)c(OC)c1	MT-4	cytopathic effect	-	ROD	62.4 µM
Cc1cn([C@@H]2C[C@H](CO)[C@H](O)C2)c(=O)[nH]c1=O	CEM + CEM/0	-	-	-	>250 µM
Cc1ccc2c(c1)COP(=O)(OCCOCn1cnc3c(=O)[nH]c(N)nc31)O2	CEM	syncytia	-	ROD	30 µM
Cc1cnc(Nc2ccc(C#N)cc2)nc1C(O)c1ccc2ccccc2c1	MT-4	MTT	-	ROD	>6.1 µM
CCCC(=O)O[C@@]12C[C@@H](C)[C@@]3(O)[C@@H](C=C(COC(C)=O)C[C@]4(O)C(=O)C(C)=C[C@@H]34)[C@@H]1C2(C)C	MT-4	MTT	-	ROD	0.2 µM
CSc1nc(N)c2ncn([C@H]3C=C[C@@H](OCP(=O)(O)O)O3)c2n1	MT-4	RT activity	-	ROD	31.9 µg/mL
CCCCCCCCCCCCOP(=O)(O)OC[C@H]1O[C@@H](n2cc(C)c(=O)[nH]c2=O)C[C@@H]1N=[N+]=[N-]	CEM + CEM TK-	syncytia	-	ROD	>40 µM
O=c1[nH]c2c(c(=O)[nH]1)C(c1ccccc1)c1c([nH]c(=O)[nH]c1=O)O2	MT-4	cytopathic effect	-	ROD	>383 µM
Nc1nc(N)c2ncn([C@H]3C=C[C@@H](OCP(=O)(O)O)O3)c2n1	MT-4	RT activity	-	ROD	33 µg/mL
CC(C)(C)[Si](C)(C)OCC1OC(n2nncc2C(=O)NC2CC2)C(O[Si](C)(C)C(C)(C)C)C12OS(=O)(=O)C=C2N	MT-4	cytopathic effect	-	ROD	>250 µM